Substitutions are numbered along the chain they refer to.
Key:
tetanus toxoid = tetanus toxoid (UniProt P04958 2-1315); test: Western blot
[1] = molecular target: T1, Clostridium difficile toxin B (whole) (Clostridium difficile, UniProt P18177 2-2366); test: Western blot
T1 construct: mature

B1: CAN20G1 (antibody, V domains shown)
VH: QIQLVQSGPELKKPGETVKISCKASGYTFTNDGMNWVKQAPGKGLKWMGWINTNTGEPTYVEEFKGRFAFSLETSASTAYLQINNLKNEDTATYFCYVNYDYYTMDCWGQGTSVTVSS
VL: QVVLTQSPAIMSASLGERVTMTCTASSSVISSYLHWYQQKPGSSPKLWIYSTSTLASGVPARFSGSGSGTSYSLTISSMEAEDAATYYCLQYHRSPRTFGGGTKLEIK
binding result (tetanus toxoid): no binding (tested: 1 µg/ml)

B2: CAN20G2 (antibody, V domains shown)
VH: B1 VH with L11V, D32Q, V61T, C107F
VL: B1 VL with E17D, S32T, A61P
notes: also called muCAN20G2; muCAN20G2-2-1
binding result [1]: no binding (tested: 1 µg/ml)
binding result (tetanus toxoid): no binding (tested: 1 µg/ml)

B3: CAN20G5 (antibody, V domains shown)
VH: B1 VH with T28S, D32S, Q39E, V61A, K65M, M105I, C107Y
VL: B1 VL with V2I, I30Y, S32T, T54N, L90H
binding result (tetanus toxoid): no binding (tested: 1 µg/ml)

B4: CAN20G8 (antibody, V domains shown)
VH: B1 VH with T28A, V61A
VL: B1 VL with T54I
binding result (tetanus toxoid): no binding (tested: 1 µg/ml)
